RC index of single-base changes in HIV-1 integrase

Source: Al-Mawsawi et al. 2014 (doi:10.1186/s12977-014-0124-6), supplementary data.

Protein: integrase of HIV-1 NL4-3, numbered from its first residue. The source prints no sequence; the chain below is taken from UniProt P12497, a closely related isolate, and fits the source at the 252 positions it covers.
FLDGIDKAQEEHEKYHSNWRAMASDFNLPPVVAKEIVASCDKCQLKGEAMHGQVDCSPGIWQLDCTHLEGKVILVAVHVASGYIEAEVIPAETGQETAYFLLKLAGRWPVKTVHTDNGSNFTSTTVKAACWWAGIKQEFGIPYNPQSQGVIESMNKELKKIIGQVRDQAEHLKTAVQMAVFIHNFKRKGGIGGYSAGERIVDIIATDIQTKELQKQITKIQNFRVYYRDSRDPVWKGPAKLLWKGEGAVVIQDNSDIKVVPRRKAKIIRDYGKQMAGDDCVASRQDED
"Other frame" gives the effect on an overlapping gene as the source lists it; other overlaps (genes, RNA elements) are not shown.

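Random point mutant libraries of HIV-1 NL4-3, one for each of seven fragments, were passaged in CEM T lymphocytes. The RC index is the frequency of a change after passage round 2 divided by its frequency in the plasmid library.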

Values are the RC index; higher means better tolerated. The authors read about 0.1 or less as lethal, 0.1-0.2 as attenuated and 0.2 or more as tolerated.
Each entry names the wild-type residue, its position and the residue put in its place.
Input reads are the counts in the plasmid library.
Nucleotide positions follow pNL4-3.
Since each clone held several changes (about five per kb), neutral changes can read low.
The authors read an index above 1 as above wild type (1.9% of all changes in the genome).

| change | base | other frame | input reads | replication capacity index |
|---|---|---|---|---|
| D278Y | G5061T | Vif silent | 69 | 0.423 |
| N184S | A4780G | none | 299 | 0.0239 |
| E69D | A4436C | none | 49 | 0.0815 |
| D270N | G5037A | none | 182 | 0.259 |
| S153C | C4687G | none | 32 | 0.167 |
| L101F | C4530T | none | 211 | 0.0750 |
| E35D | A4334T | none | 467 | 0.0483 |
| D253V | A4987T | none | 187 | 0.0600 |
| Y99F | A4525T | none | 221 | 0.0358 |
| D55H | G4392C | none | 63 | 0.0634 |
| I36M | A4337G | none | 302 | 0.164 |
| L172I | C4743A | none | 258 | 0.118 |
| G237R | G4938A | none | 211 | 0.191 |
| S255N | G4993A | none | 309 | 0.145 |
| N120S | A4588G | none | 256 | 0.0541 |
| E138D | A4643T | none | 321 | 0.0431 |
| H67L | A4429T | none | 304 | 0.236 |
| V75I | G4452A | none | 490 | 0.159 |
| D116Y | G4575T | none | 317 | 0.162 |
| G106V | G4546T | none | 151 | 0.0786 |
| E96G | A4516G | none | 203 | 0.0779 |
| G163R | G4716A | none | 272 | 0.821 |
| I204L | A4839T | none | 474 | 0.0190 |
| E10V | A4258T | none | 196 | 0.0345 |
| I251K | T4981A | none | 197 | 0.0228 |
| D270E | T5039A | none | 295 | 0.0533 |
| L2F | A4235T | none | 397 | 0.0568 |
| N27K | C4310A | none | 101 | 0.134 |
| G245S | G4962A | none | 282 | 0.183 |
| A76S | G4455T | none | 326 | 0.0367 |
| L172P | T4744C | none | 366 | 0.0390 |
| D202N | G4833A | none | 273 | 0.0924 |
| I73V | A4446G | none | 174 | 0.0803 |
| K188T | A4792C | none | 188 | 0.0382 |
| V180E | T4768A | none | 158 | 0.0452 |
| L45Q | T4363A | none | 643 | 0.0965 |
| R262I | G5014T | none | 241 | 0.102 |
| C280R | T5067C | Vif silent | 320 | 0.0701 |
| G189E | G4795A | none | 454 | 0.213 |
| G70R | G4437A | none | 235 | 0.688 |
| E198G | A4822G | none | 286 | 0.101 |
| T66S | A4425T | none | 283 | 0.120 |
| V165E | T4723A | none | 317 | 0.0507 |
| H114L | A4570T | none | 381 | 0.0467 |
| E11V | A4261T | none | 220 | 0.0410 |
| A23D | C4297A | none | 356 | 0.0760 |
| K46N | A4367C | none | 111 | 0.0540 |
| K211N | A4862T | none | 183 | 0.0295 |
| K273E | A5046G | Vif silent | 330 | 0.0884 |
| V250I | G4977A | none | 215 | 0.188 |
| I162T | T4714C | none | 225 | 0.0317 |
| L2V | T4233G | none | 61 | 0.111 |
| K34I | A4330T | none | 351 | 0.0385 |
| D116H | G4575C | none | 69 | 0.172 |
| G247E | G4969A | none | 206 | 0.0980 |
| V234L | G4929C | none | 140 | 0.144 |
| A8D | C4252A | none | 86 | 0.184 |
| C40R | T4347C | none | 435 | 0.109 |
| I36V | A4335G | none | 306 | 0.0663 |
| F121S | T4591C | none | 330 | 0.120 |
| A128S | G4611T | none | 73 | 0.244 |
| F1L | T4232G | none | 134 | 0.0673 |
| Q209K | C4854A | none | 126 | 0.172 |
| E246D | A4967T | none | 283 | 0.0476 |
| L242H | T4954A | none | 239 | 0.0282 |
| I141F | A4650T | none | 269 | 0.0441 |
| Q53L | A4387T | none | 364 | 0.0549 |
| I268F | A5031T | none | 206 | 0.0327 |
| K14E | A4269G | none | 328 | 0.0275 |
| P233L | C4927T | none | 293 | 0.130 |
| K136E | A4635G | none | 732 | 0.0459 |
| I257V | A4998G | none | 271 | 0.0414 |
| S123G | A4596G | none | 298 | 0.146 |
| N117S | A4579G | none | 342 | 0.0463 |
| Y83N | T4476A | none | 207 | 0.0386 |
| P238S | C4941T | none | 469 | 0.115 |
| K258T | A5002C | none | 238 | 0.0283 |
| I151M | A4682G | none | 301 | 0.166 |
| S255R | T4994A | none | 300 | 0.0374 |
| K71I | A4441T | none | 335 | 0.0298 |
| A86V | C4486T | none | 397 | 0.146 |
| R107S | A4550T | none | 192 | 0.0412 |
| K173E | A4746G | none | 184 | 0.0776 |
| Q44H | G4361T | none | 479 | 0.0804 |
| M50I | G4379C | none | 74 | 0.108 |
| N155Y | A4692T | none | 90 | 0.119 |
| V54L | G4389T | none | 117 | 0.0683 |
| K111N | A4562T | none | 318 | 0.0187 |
| L242F | C4953T | none | 246 | 0.0730 |
| M178K | T4762A | none | 635 | 0.0253 |
| P109Q | C4555A | none | 192 | 0.124 |
| G245C | G4962T | none | 268 | 0.126 |
| K127R | A4609G | none | 281 | 0.0915 |
| N254S | A4990G | none | 397 | 0.0735 |
| L101H | T4531A | none | 184 | 0.0430 |
| S123R | T4598G | none | 45 | 0.0440 |
| G118C | G4581T | none | 186 | 0.170 |
| Q177R | A4759G | none | 507 | 0.0423 |
| D55G | A4393G | none | 155 | 0.0773 |
| E10D | A4259T | none | 417 | 0.0703 |
| I208V | A4851G | none | 241 | 0.0299 |
| E13V | A4267T | none | 196 | 0.0460 |
| V113I | G4566A | none | 627 | 0.290 |
| S147C | A4668T | none | 414 | 0.0388 |
| G247R | G4968A | none | 158 | 0.199 |
| A38D | C4342A | none | 142 | 0.0794 |
| V150L | G4677T | none | 108 | 0.0827 |
| T174R | C4750G | none | 284 | 0.0440 |
| N117K | T4580A | none | 597 | 0.0497 |
| V72D | T4444A | none | 341 | 0.0234 |
| A239S | G4944T | none | 216 | 0.0416 |

15 of these entries, quoted again:

change	base	other frame	input reads	replication capacity index
D202N	G4833A	none	273	0.0924
S123R	T4598G	none	45	0.0440
N117S	A4579G	none	342	0.0463
T66S	A4425T	none	283	0.120
V72D	T4444A	none	341	0.0234
G189E	G4795A	none	454	0.213
N27K	C4310A	none	101	0.134
G247E	G4969A	none	206	0.0980
G245S	G4962A	none	282	0.183
C280R	T5067C	Vif silent	320	0.0701
V180E	T4768A	none	158	0.0452
N184S	A4780G	none	299	0.0239
K34I	A4330T	none	351	0.0385
K46N	A4367C	none	111	0.0540
N117K	T4580A	none	597	0.0497